# B1: recombinant human full-length SP-D (hFL-SP-D) (other)
# chain: AEMKTYSHRTMPSACTLVMCSSVESGLPGRDGRDGREGPRGEKGDPGLPGAAGQAGMPGQAGPVGPKGDNGSVGEPGPKGDTGPSGPPGPPGVPGPAGREGPLGKQGNIGPQGKPGPKGEAGPKGEVGAPGMQGSAGARGLAGPKGERGVPGERGVPGNTGAAGSAGAMGPQGSPGARGPPGLKGDKGIPGDKGAKGESGLPDVASLRQQVEALQGQVQHLQAAFSQYKKVELFPNGQSVGEKIFKTAGFVKPFTEAQLLCTQAGGQLASPRSAAENAALQQLVVAKNEAAFLSMTDSKTEGKFTYPTGESLVYSNWAPGEPNDDGGSEDCVEIFTNGKWNDRACGEKRLVVCEF
# Molecular target: T1, SARS-CoV-2 spike receptor binding domain (RBD) (Acro, Arg319-Phe541, His-tag) (SARS-CoV-2, UniProt P0DTC2 319-541)
# T1 construct: range 319-541
# Assay: direct ELISA (conclusion)
binder,measurement,value
B1,binding result,binds

# — patent publication US20230002477A1 (published 2023)
